System: PrP^res
Test: Detection of PrP^res in bovine brain by Western blotting after treatment with calixarene C6S and streptomycin
Conditions: FIG. 7

Molecule: [H]/N=C(/N)N[C@H]1[C@H](O)[C@@H](O)[C@H](O[C@@H]2O[C@@H](C)[C@](O)(C=O)[C@H]2O[C@@H]2O[C@@H](CO)[C@H](O)[C@@H](O)[C@@H]2NC)[C@@H](N/C(N)=N\[H])[C@@H]1O [streptomycin]
- sensitivity of PrP^res detection versus amount of streptomycin (20 μl streptomycin sulfate 5%, 10%, 20%, after calixarene C6S): the sensitivity of this method increases with the amount of streptomycin used

Molecule: p-sulfonato-3,7-(2-amino-ethyloxy)calix-[6]-arene
- detection of PrP^res (calixarene C6S (1 μl of 0.1M) used together with streptomycin, versus untreated or calixarene alone): improved

Reference: US7566530B2 (priority 2004, dated 2009)
